A mixed list of measured activities; the numbers were collected in NIAID ChemDB.

All rows: tests on isolated targets

Neighbouring rows are from separate reports. ICn is the concentration giving n% inhibition. Blank or dashed fields: not listed here. Inhibition is in % at the dose shown (toxicity tests: loss of growth or viability).

SMILES,read-out,target,read by,dose,strain or isolate,organism,result
CO[C@H]1CN(c2nc(-c3ncn(CC4CC4)n3)c(C(=O)O)s2)CC[C@H]1NC(=O)c1[nH]c(C)c(Cl)c1Br,IC50,DNA gyrase holoenzyme,gel,-,H37Rv,Mycobacterium tuberculosis,<0.005 µM
O=C(O)[C@]1(O)C=C(c2ccc3cc[nH]c3c2)[C@@H](O)[C@H](O)C1,IC50,Type II dehydroquinase,-,-,-,Mycobacterium tuberculosis,>300 µM
C/C(=N/NC(=N)N)c1cc(NC(=O)c2ccc(C(=O)Nc3cc(/C(C)=N\NC(=N)N)cc(/C(C)=N/NC(=N)N)c3)s2)cc(/C(C)=N/NC(=N)N)c1,inhibition,Protein kinase B,kinase activity / radiometric,10 µM,-,Mycobacterium tuberculosis,98.4%
O=C(NO)C(O)C(O)COP(=O)([O-])[O-],IC50,Ribose-5-phosphate isomerase,-,-,-,Mycobacterium tuberculosis,40 µM
O=c1oc(-c2cccc(F)c2)ns1,IC50,Proteasome,broth dilution / fluorescence,-,-,Mycobacterium tuberculosis,0.63 µM
Oc1ccc2ccccc2c1Oc1ccccc1,IC50,Enoyl reductase,-,-,-,Mycobacterium tuberculosis,>200 µM
O=c1oc(-c2ccccc2)ns1,IC50,Proteasome,broth dilution / fluorescence,-,-,Mycobacterium tuberculosis,1.35 µM
CCCCCCCCCCCC[C@@H]1OC(=O)[C@H](COCc2ccccc2)NC(=O)[C@H](C(C)O)NC(=O)[C@H](C(C)C)NC(=O)[C@@H]1C,IC50,Protein tyrosine phosphatase A,-,-,-,Mycobacterium tuberculosis,>30 µM
C/C(=N/N=C(N)N)c1cc(NC(=O)CCC(=O)Nc2cc(/C(C)=N\N=C(N)N)cc(/C(C)=N/N=C(N)N)c2)cc(/C(C)=N/N=C(N)N)c1,IC50,Protein kinase B,kinase activity / radiometric,-,-,Mycobacterium tuberculosis,0.201 µM
Cn1c(=O)sn(-c2cccc3ccccc23)c1=O,IC50,Alanine racemase,HPLC,-,H37Rv,Mycobacterium tuberculosis,0.12 µM
C/C(=N/N=C(N)N)c1cc(NC(=O)C(F)(F)C(F)(F)C(F)(F)C(F)(F)C(F)(F)C(F)(F)C(F)(F)C(F)(F)C(=O)Nc2cc(/C(C)=N\N=C(N)N)cc(/C(C)=N\N=C(N)N)c2)cc(/C(C)=N\N=C(N)N)c1,inhibition,Protein kinase B,kinase activity / radiometric,10 µM,-,Mycobacterium tuberculosis,97.6%
Oc1cc(F)ccc1Oc1ccccc1,Ki,Enoyl reductase,-,-,-,Mycobacterium tuberculosis,13 µM
COc1cc(NCc2cnc3nc(N)nc(N)c3c2C)cc(OC)c1,IC50,Dihydrofolate reductase,-,-,-,Mycobacterium avium complex,0.00064 µM
O=C(Nc1ccccc1)N1CCc2c(c(-c3ccccc3)nn2Cc2cn(-c3ccccc3F)nn2)C1,IC50,Pantothenate synthetase,absorbance,-,-,Mycobacterium tuberculosis,5.93 µM
NNC(=O)c1ccncc1,inhibition,NADH oxidase,-,1000 µM,H37RV (INH 10 ug/mL-R),Mycobacterium tuberculosis,0%
O=c1[nH]c(=O)c2c([nH]1)n(C[C@H](O)[C@H](O)[C@H](O)CO)c(=O)n2CCCCCP(=O)(O)O,Ki,Lumazine synthase,-,-,-,Mycobacterium tuberculosis,0.0047 µM
Oc1cc(Cl)ccc1Oc1ccccc1,Ki,Enoyl reductase,-,-,-,Mycobacterium tuberculosis,4.9 µM
Cc1ccc(-n2cc(Cn3nc(-c4ccccc4)c4c3CCN(C(=O)Nc3ccccc3)C4)nn2)cc1C,IC50,Pantothenate synthetase,absorbance,-,-,Mycobacterium tuberculosis,6.91 µM
CCOP(=O)(CC1[C@H](O)[C@H](O)C(O)[C@H](O)[C@H]1O)OCC,inhibition,Phosphatidylinositol phosphate synthase,-,1000 µM,-,Mycobacterium bovis,11%
O=C(Nc1ccccc1)N1CCc2c(c(-c3ccccc3)nn2Cc2cn(-c3ccc(I)cc3)nn2)C1,IC50,Pantothenate synthetase,absorbance,-,-,Mycobacterium tuberculosis,1.04 µM
O=c1sn(-c2ccccc2C(F)(F)F)c(=O)n1CC1CC1,IC50,Alanine racemase,HPLC,-,H37Rv,Mycobacterium tuberculosis,0.82 µM
O=P(O)(O)CC1[C@H](O)[C@H](O)C(O)[C@H](O)[C@H]1O,inhibition,Phosphatidylinositol phosphate synthase,-,1000 µM,-,Mycobacterium bovis,0%
COC(=O)[C@@H](NC(=O)NCC(=O)N[C@H]1CCCCNC(=O)/C=C/[C@H](Cc2c[nH]c3ccccc23)NC1=O)C(C)C,IC50,Proteasome,substrate cleavage / fluorescence,-,-,Mycobacterium tuberculosis,0.144 µM
[2H]C([2H])([2H])OC(=O)N/C=C/CCCc1cc(O)c(C(=O)/C(C)=C/c2cnc(Oc3ccc(F)c(Cl)c3)s2)c(=O)o1,IC50,RNA polymerase,nucleotide incorporation / fluorescence,-,-,Mycobacterium tuberculosis,0.03 µM
Cc1noc(C)c1-n1sc(=O)n(CC2CC2)c1=O,IC50,Alanine racemase,HPLC,-,mc2155,Mycobacterium smegmatis,>100 µM
O=C(Nc1ccccc1)N1CCc2c(c(-c3ccccc3)nn2Cc2cn(-c3ccc(Cl)c(Cl)c3)nn2)C1,IC50,Pantothenate synthetase,absorbance,-,-,Mycobacterium tuberculosis,0.91 µM
O=c1sn(-c2ccc(F)c(Cl)c2)c(=O)n1C1Cc2ccccc2C1,IC50,Alanine racemase,HPLC,-,H37Rv,Mycobacterium tuberculosis,8.46 µM
Cc1ccc(C)n1-c1cc(C(=O)O)cc(C(=O)O)c1,Ki,Protein tyrosine phosphatase A,-,-,-,Mycobacterium tuberculosis,34 µM
CC1(C)[C@H](C(=O)O)N2C(=O)C[C@H]2S1(=O)=O,IC50,Beta-lactamase,-,-,TB3,Mycobacterium tuberculosis,0.75 µg/mL
CO[C@H]1/C=C/O[C@@]2(C)Oc3c(C)c(O)c4c(=O)c(c5oc6cc(N7CCN(CC(C)C)CC7)cc(=O)c6nc5c4c3=C2O)NC(=O)/C(C)=C\C=C\[C@H](C)[C@H](O)[C@@H](C)[C@@H](O)[C@@H](C)[C@H](OC(C)=O)[C@@H]1C,IC50,DNA polymerase,-,-,F-65,Mycobacterium fortuitum,>10 µg/mL
C[C@H]1COC2(CCN(c3nc(=O)c4cc(C(F)(F)F)cc([N+](=O)[O-])c4s3)CC2)O1,IC50,Cytochrome P450 3A4,fluorescence / absorbance,-,-,Mycobacterium tuberculosis,57.64 µM
C=CC(C)(C)c1c(OC)oc(-c2ccccc2)cc1=O,inhibition,MurE,absorbance,1000 µM,-,Mycobacterium tuberculosis,83%
O=C(O)CC1[C@@H](O)[C@H](O)C(O)[C@H](O)[C@@H]1O,inhibition,Phosphatidylinositol phosphate synthase,-,1000 µM,-,Mycobacterium bovis,7%
O=C(Nc1ccccc1)N1CCc2c(c(-c3ccccc3)nn2Cc2cn(-c3ccccc3Br)nn2)C1,IC50,Pantothenate synthetase,absorbance,-,-,Mycobacterium tuberculosis,3.54 µM
Cc1ccc(C(=O)O)cc1-n1c(C)ccc1C,Ki,Protein tyrosine phosphatase A,-,-,-,Mycobacterium tuberculosis,28 µM
O=C(Nc1ccccc1)N1CCc2c(c(-c3ccccc3)nn2Cc2cn(-c3cccc(Cl)c3)nn2)C1,IC50,Pantothenate synthetase,absorbance,-,-,Mycobacterium tuberculosis,1.14 µM
O=c1[nH]c(=O)c2c([nH]1)n(C[C@H](O)[C@H](O)[C@H](O)CO)c(=O)c(=O)n2CCCCOP(=O)(O)O,Ki,Lumazine synthase,-,-,-,Mycobacterium tuberculosis,0.036 µM
O=C(O)[C@]1(O)C=C(c2ccc3c(c2)NON3)[C@@H](O)[C@H](O)C1,IC50,Type II dehydroquinase,-,-,-,Mycobacterium tuberculosis,1.95 µM
CO[C@H]1CN(c2nc(-c3ncn(C)n3)c(C(=O)O)s2)CC[C@H]1NC(=O)c1[nH]c(C)c(Cl)c1Br,IC50,DNA gyrase holoenzyme,gel,-,H37Rv,Mycobacterium tuberculosis,<0.005 µM
COC1=CC2=N/C1=C\c1ccc([nH]1)CCCC/C=C/CCCC1=CC=C2O1,IC50,Protein tyrosine phosphatase A,-,-,-,Mycobacterium tuberculosis,>30 µM
O=C(Nc1ccccc1)N1CCc2c(c(-c3ccccc3)nn2Cc2cn(-c3ccc([N+](=O)[O-])cc3)nn2)C1,IC50,Pantothenate synthetase,absorbance,-,-,Mycobacterium tuberculosis,8.97 µM
CNc1cc(-c2[nH]c(C(C)(C)C)nc2-c2ccc3cc(OC)ccc3c2)ccn1,IC50,MTB glutamine synthethase,-,-,-,Mycobacterium tuberculosis,5.2 µM
COc1ccc(-n2cc(Cn3nc(-c4ccccc4)c4c3CCN(C(=O)Nc3ccccc3)C4)nn2)cc1,IC50,Pantothenate synthetase,absorbance,-,-,Mycobacterium tuberculosis,1.01 µM
CCCCCCCCCCCC[C@@H]1CC(=O)N[C@@H](C(C)C)C(=O)N[C@@H](C(C)O)C(=O)N[C@@H](COCc2ccccc2)C(=O)O1,IC50,Protein tyrosine phosphatase A,-,-,-,Mycobacterium tuberculosis,>30 µM
O=C(O)[C@]1(O)C=C(c2ccc([N+](=O)[O-])cc2)[C@@H](O)[C@H](O)C1,IC50,Type II dehydroquinase,-,-,-,Mycobacterium tuberculosis,6.5 µM
O=C(Nc1ccccc1)N1CCc2c(c(-c3ccccc3)nn2Cc2cn(-c3ccc(Br)cc3)nn2)C1,IC50,Pantothenate synthetase,absorbance,-,-,Mycobacterium tuberculosis,2.46 µM
Cc1ccc(-n2sc(=O)n(Cc3ccc(F)cc3)c2=O)cc1,IC50,Alanine racemase,HPLC,-,mc2155,Mycobacterium smegmatis,>100 µM
Oc1ccccc1Oc1ccc(Oc2ccccc2O)cc1,IC50,Enoyl reductase,-,-,-,Mycobacterium tuberculosis,>190 µM
C/C(=C1\C=CC=N1)c1ccc(-c2[nH]ccc2Cl)o1,IC50,Protein tyrosine phosphatase A,-,-,-,Mycobacterium tuberculosis,>30 µM
O=c1oc(/C=C/c2ccc(C(F)(F)F)cc2)ns1,IC50,Proteasome,broth dilution / fluorescence,-,-,Mycobacterium tuberculosis,0.64 µM
Cc1onc(-c2ccccc2Cl)c1C(=O)N[C@@H]1C(=O)N2[C@@H]1SC(C)(C)[C@@H]2C(=O)O,IC50,Beta-lactamase,-,-,TB2,Mycobacterium tuberculosis,1 µg/mL
CCOC(=O)c1cccc(-n2sc(=O)n(C3Cc4ccccc4C3)c2=O)c1,IC50,Alanine racemase,HPLC,-,H37Rv,Mycobacterium tuberculosis,28.76 µM
O=C(O)[C@]1(O)C=C(c2ccc3occc3c2)[C@@H](O)[C@H](O)C1,IC50,Type II dehydroquinase,-,-,-,Mycobacterium tuberculosis,2 µM
O=c1oc(/C=C/C(F)(F)F)ns1,IC50,Proteasome,broth dilution / fluorescence,-,-,Mycobacterium tuberculosis,38 µM
COCCn1cnc(-c2nc(N3CC[C@@H](NC(=O)c4[nH]c(C)c(Cl)c4Br)[C@@H](OC)C3)sc2C(=O)O)n1,IC50,DNA gyrase holoenzyme,gel,-,H37Rv,Mycobacterium tuberculosis,<0.005 µM

A second listing of 5 rows from above:

SMILES	read-out	target	read by	dose	strain or isolate	organism	result
O=C(NO)C(O)C(O)COP(=O)([O-])[O-]	IC50	Ribose-5-phosphate isomerase	-	-	-	Mycobacterium tuberculosis	40 µM
C=CC(C)(C)c1c(OC)oc(-c2ccccc2)cc1=O	inhibition	MurE	absorbance	1000 µM	-	Mycobacterium tuberculosis	83%
O=c1oc(/C=C/c2ccc(C(F)(F)F)cc2)ns1	IC50	Proteasome	broth dilution / fluorescence	-	-	Mycobacterium tuberculosis	0.64 µM
CCOC(=O)c1cccc(-n2sc(=O)n(C3Cc4ccccc4C3)c2=O)c1	IC50	Alanine racemase	HPLC	-	H37Rv	Mycobacterium tuberculosis	28.76 µM
O=P(O)(O)CC1[C@H](O)[C@H](O)C(O)[C@H](O)[C@H]1O	inhibition	Phosphatidylinositol phosphate synthase	-	1000 µM	-	Mycobacterium bovis	0%